Measurements reported in PubChem BioAssay AID624099 (ICCB-Longwood, 2012)

Assay: 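Knock-downs relieving repression by E2 of an HPV18 LCR luciferase reporter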 (primary screen)
Cells: human C33A cervical carcinoma cells (HPV-negative) stably expressing BPV1 E2 and an HPV18 LCR luciferase reporter
Reagent: siRNA pool against human genes, 40 nM
Duration: 72 h
Measured: 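Per-well luciferase luminescence, z-scored on each plate against the plate mean and SD with control wells left out, then averaged across three replicate plates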
Scale: mean z-score and z-score: higher = stronger reporter signal, weaker E2 silencing
Hit rule: 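Hit if mean z-score reaches 2 and two or more of three replicate z-scores also reach 2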
Shown is an unselected part of about 21,000 reagents tested. 497 of them (2.4%) were called active. 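Higher z means weaker E2 silencing; only reporter increases were scored, and knock-downs that hurt cell survival may mask genuine repressor factors.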

FIZ1
- mean z-score: -0.26
- z-score, replicate A: -0.49
- z-score, replicate B: -0.25
- z-score, replicate C: -0.03
- call: inactive

CDK2AP2
- mean z-score: -0.91
- z-score, replicate A: -1.02
- z-score, replicate B: -0.92
- z-score, replicate C: -0.8
- call: inactive

NGRN
- mean z-score: 2.72
- z-score, replicate A: 3.47
- z-score, replicate B: 1.92
- z-score, replicate C: 2.78
- call: active

MSR1
- mean z-score: -0.59
- z-score, replicate A: -0.67
- z-score, replicate B: -0.57
- z-score, replicate C: -0.53
- call: inactive

LOC402103 (retired record)
- mean z-score: -0.68
- z-score, replicate A: -0.46
- z-score, replicate B: -1.06
- z-score, replicate C: -0.53
- call: inactive

POF1B
- mean z-score: 0.12
- z-score, replicate A: 0.72
- z-score, replicate B: 0.04
- z-score, replicate C: -0.41
- call: inactive

CHRAC1
- mean z-score: -0.05
- z-score, replicate A: -0.04
- z-score, replicate B: -0.15
- z-score, replicate C: 0.03
- call: inactive

TFB1M
- mean z-score: -1.71
- z-score, replicate A: -2.31
- z-score, replicate B: -1.76
- z-score, replicate C: -1.06
- call: inactive

SGO2
- mean z-score: 1.07
- z-score, replicate A: 1.39
- z-score, replicate B: 0.79
- z-score, replicate C: 1.05
- call: inactive

SLC35E3
- mean z-score: -0.02
- z-score, replicate A: 0.1
- z-score, replicate B: -0.04
- z-score, replicate C: -0.11
- call: inactive

ERGIC1
- mean z-score: -0.66
- z-score, replicate A: -0.59
- z-score, replicate B: -0.56
- z-score, replicate C: -0.83
- call: inactive

EDARADD
- mean z-score: -0.28
- z-score, replicate A: -0.26
- z-score, replicate B: -0.39
- z-score, replicate C: -0.19
- call: inactive

Active calls, among the entries above:
NGRN
- mean z-score: 2.72
- z-score, replicate A: 3.47
- z-score, replicate B: 1.92
- z-score, replicate C: 2.78
- call: active
